The list shows a part of the results, in another mix than the full data. Active and inactive are the calls of the source.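 The calls were made as follows: active = plate passing quality check with inhibition over a set limit, or well fluorescence over plate mean plus 4 SD; inactive = the rest.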
Experiment: antifungal drug efflux pump blockers, triplex strains – S. cerevisiae, Nile Red, multiplex, primary screen (AID 485275);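 also: Nile Red retained in pooled yeast measured as flow cytometry median fluorescence; 0% = buffer negative control and 100% = Enniatin B positive control; higher means more Nile Red kept so more efflux inhibition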
Settings: S. cerevisiae Candida pump triplex, at 10 µM, hits give high values

Row | Compound | inhibition
1 | ClCCSc1nnc(-c2cccnc2)o1 | inactive: -0.12%

From PubChem BioAssay AID485275 (NMMLSC, 2010)
